# Mutational interference map of HIV-1 RNA dimerization

Values reported by Ye et al. 2022 (doi:10.1038/s41594-022-00746-2).

The 5' region of HIV-1 NL4-3 RNA (positions 1-437):
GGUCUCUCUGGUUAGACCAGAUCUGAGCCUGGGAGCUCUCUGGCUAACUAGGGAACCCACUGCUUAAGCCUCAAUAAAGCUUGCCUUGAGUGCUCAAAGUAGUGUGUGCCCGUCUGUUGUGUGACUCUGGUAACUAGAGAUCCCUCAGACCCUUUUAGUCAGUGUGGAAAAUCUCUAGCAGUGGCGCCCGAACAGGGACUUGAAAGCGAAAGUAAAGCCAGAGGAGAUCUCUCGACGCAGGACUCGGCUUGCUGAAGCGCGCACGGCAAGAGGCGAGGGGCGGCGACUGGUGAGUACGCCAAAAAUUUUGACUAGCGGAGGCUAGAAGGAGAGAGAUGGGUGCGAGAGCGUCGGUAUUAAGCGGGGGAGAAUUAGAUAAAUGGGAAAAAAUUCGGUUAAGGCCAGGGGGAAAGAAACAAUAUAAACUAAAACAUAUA

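Randomly mutated transcripts starting with one, two or three G (1G, 2G, 3G), capped or uncapped, were folded for 30 min at 37 °C. Monomer and dimer bands were cut from native gels after folding in high salt (300 mM KCl, 5 mM MgCl2) or low salt (40 mM KCl, 0.1 mM MgCl2). Mutation frequencies in the two bands give Kdimer.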

Values are log2 Kdimer, the median over the changes at each position: higher means that changes there hinder dimer formation, below 0 that they favour it. Sample: 1G uncapped high-salt. One numbering serves 1G, 2G and 3G. A position is written with its base where known. The source gives no letters past position 437.

position	1G uncapped high-salt
G25	-0.08
G31	-0.06
C38	0.06
U49	0.12
A54	-0.07
A59	0.31
U65	0.16
A67	0.18
A77	0.05
U100	0.08
G108	0.07
G116	0.29
U117	-0.02
U126	0.19
U128	0.44
G129	0.46
A136	0.20
U153	-0.03
U154	0.03
C160	-0.09
G167	0.36
U182	0.16
C188	0.06
C189	0.14
A192	0.10
U200	0.18
A204	0.17
C207	-0.17
A214	0.03
G226	-0.29
G234	0.44
G237	0.70
U253	2.44
C262	4.31
C267	4.48
A269	1.61
A271	-0.10
C287	-0.05
G292	0.01
G298	-0.50
A305	-0.15
U313	1.06
C316	0.07
G320	-0.07
G328	0.00
G329	0.07
A334	0.14
A347	0.46
G348	-0.33
U351	0.11
U355	0.13
A370	0.07
G375	0.06
A376	0.03
G382	-0.01
G384	-0.26
A385	-0.14
U391	0.06
G405	-0.03
G413	0.05
A421	0.08
U422	0.07
A424	0.02
A425	0.07
442	0.05
450	0.14
471	0.00
497	0.03
506	0.05